PubChem BioAssay AID624099 – ICCB-Longwood, 2012
The whole screen tested about 21,000 reagents; this is a random part of them. 497 of them (2.4%) count as active. 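Higher z means weaker E2 silencing; only reporter increases were scored, and knock-downs that hurt cell survival may mask genuine repressor factors.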 Unmarked entries are inactive.

- Aim: 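Host factors E2 relies on to silence an HPV18 LCR reporter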 (primary screen)
- Cells: human C33A cervical carcinoma cells (HPV-negative) stably expressing BPV1 E2 and an HPV18 LCR luciferase reporter
- Reagent: siRNA pool against human genes, 40 nM
- Duration: 72 h
- Measurement: 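Per-well luciferase luminescence, z-scored on each plate against the plate mean and SD with control wells left out, then averaged across three replicate plates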
- Reading the numbers: mean z-score and z-score: higher = stronger reporter signal, weaker E2 silencing
- Rule for the call: 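Hit if mean z-score reaches 2 and two or more of three replicate z-scores also reach 2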

For COMMD8 (COMM domain containing 8), how do the results read?
mean z-score: -0.91; z-score, replicate A: -0.99; z-score, replicate B: -0.72; z-score, replicate C: -1.02

How did the screen score ZNF664 (zinc finger protein 664)?
mean z-score: 0.11; z-score, replicate A: 0.67; z-score, replicate B: -0.08; z-score, replicate C: -0.26

For HYPK (huntingtin interacting protein K), what was measured?
mean z-score: 2.44 (active); z-score, replicate A: 2.14; z-score, replicate B: 2.77; z-score, replicate C: 2.41

What did the screen give for TENM1 (teneurin transmembrane protein 1)?
mean z-score: 0; z-score, replicate A: 0.07; z-score, replicate B: -0.1; z-score, replicate C: 0.02

With DMAC2L (distal membrane arm assembly component 2 like), what was measured?
mean z-score: 0.59; z-score, replicate A: 0.55; z-score, replicate B: 0.83; z-score, replicate C: 0.37

With GOLT1B (golgi transport 1B), how do the results read?
mean z-score: -0.08; z-score, replicate A: -0.21; z-score, replicate B: -0.31; z-score, replicate C: 0.27

With OR4K17 (olfactory receptor family 4 subfamily K member 17), how do the results read?
mean z-score: 0.02; z-score, replicate A: 0.25; z-score, replicate B: -0.02; z-score, replicate C: -0.18

With LRMDA (leucine rich melanocyte differentiation associated), what does the deposit list?
mean z-score: 0.26; z-score, replicate A: 0.2; z-score, replicate B: 0.23; z-score, replicate C: 0.36

What did the screen give for SLC17A4?
mean z-score: -1.19; z-score, replicate A: -1.09; z-score, replicate B: -1.31; z-score, replicate C: -1.17

For CNBP (CCHC-type zinc finger nucleic acid binding protein), how do the results read?
mean z-score: 0.43; z-score, replicate A: 0.02; z-score, replicate B: 0.77; z-score, replicate C: 0.51

For SEC61G (SEC61 translocon subunit gamma), how do the results read?
mean z-score: -0.89; z-score, replicate A: -1.3; z-score, replicate B: -0.89; z-score, replicate C: -0.49

What is on record for IGLL1 (immunoglobulin lambda like polypeptide 1)?
mean z-score: -0.34; z-score, replicate A: -0.3; z-score, replicate B: -0.37; z-score, replicate C: -0.35

For COL27A1 (collagen type XXVII alpha 1 chain), what does the deposit list?
mean z-score: -0.38; z-score, replicate A: -0.43; z-score, replicate B: -0.33; z-score, replicate C: -0.38

How did the screen score FRMD4A (FERM domain containing 4A)?
mean z-score: 0.22; z-score, replicate A: 0; z-score, replicate B: 0.25; z-score, replicate C: 0.4

Which result is listed for LARP1B (La ribonucleoprotein 1B)?
mean z-score: -0.86; z-score, replicate A: -1.31; z-score, replicate B: -1.2; z-score, replicate C: -0.07

How did the screen score BECN1 (beclin 1)?
mean z-score: -0.44; z-score, replicate A: -0.77; z-score, replicate B: -0.43; z-score, replicate C: -0.12

With UGT2B11 (UDP glucuronosyltransferase family 2 member B11), how do the results read?
mean z-score: 2.31 (active); z-score, replicate A: 2.36; z-score, replicate B: 2.34; z-score, replicate C: 2.23

With FUT2 (fucosyltransferase 2 (H blood group)), what does the deposit list?
mean z-score: -0.25; z-score, replicate A: -0.45; z-score, replicate B: -0.17; z-score, replicate C: -0.13

For H2AZ1 (H2A.Z variant histone 1), what was measured?
mean z-score: 0.95; z-score, replicate A: 1.71; z-score, replicate B: 0.71; z-score, replicate C: 0.44

For WDR64 (WD repeat domain 64), what does the deposit list?
mean z-score: -0.41; z-score, replicate A: -0.18; z-score, replicate B: -0.32; z-score, replicate C: -0.72

With BAG4 (BAG cochaperone 4), what does the deposit list?
mean z-score: 0.63; z-score, replicate A: 0.6; z-score, replicate B: 0.69; z-score, replicate C: 0.6

Records listed so far whose gene name begins with C or c (3):
COMMD8 (COMM domain containing 8) — mean z-score = -0.91; z-score, replicate A = -0.99; z-score, replicate B = -0.72; z-score, replicate C = -1.02
CNBP (CCHC-type zinc finger nucleic acid binding protein) — mean z-score = 0.43; z-score, replicate A = 0.02; z-score, replicate B = 0.77; z-score, replicate C = 0.51
COL27A1 (collagen type XXVII alpha 1 chain) — mean z-score = -0.38; z-score, replicate A = -0.43; z-score, replicate B = -0.33; z-score, replicate C = -0.38
